Experimental data as given in patent US7407783B2, “Fructosylamine oxidase” (priority 2002, dated 2008).

Tested on: FAO-Q2
Experiment: Substrate specificity of FAO-Q2 (FAO activity, rate method, H2O2 colorimetry)
Type: biochemical, Fusarium proliferatum
Settings: for Relative activity (%) FAO-Q2: activity of FAO-Q2 on the substrate, FV = 100
Experimental: Titration of enzyme can be performed by a method known in the art (e.g., kinetic method), for example, that described in Example 1 (3). In this method, hydrogen peroxide generated by the reaction of an FAO with a glycated amino acid or peptide is measured on the basis of absorbance (505 nm) of quinone pigment produced in the presence of hydrogen peroxide. The amount (μmole) of hydrogen peroxide generated per minute is calculated on the basis of molar absorptivity (5.16×10^3 M^−1 cm^−1) of quinone pigment and the resultant numerical value is taken as a unit (U) of enzyme activity.
FAO activity of the crude enzyme solution was determined by the aforementioned rate method. The time-course of generation of hydrogen peroxide in the reaction mixture below was measured by a colorimetric method, and FAO activity was evaluated.
A mixture (total 3 ml) except for the enzyme solution was equilibrated at 30° C. After adding the enzyme solution, the time-course of absorbance at 505 nm was measured. The amount (μmole) of hydrogen peroxide generated per minute was calculated on the basis of molar absorptivity (5.16×10^3 M^−1 cm^−1) of quinone pigment produced, and the resultant numerical value was taken as a unit(U) of enzyme activity. As a result, a strain having FAO was obtained.
The substrate specificity of the enzymes (FAO-Q1, FAO-Q2) contained in 2 fractions separated in (1), 3) above was determined. The FAO activity was measured using the respective two fractions as an enzyme solution according to the method described in Example 1(3). As a substrate, FV, FVH, FVHL, FVL, FVLS and FZL were used.

fructosyl valine-histidine (VH) [FVH]
Activity of FAO-Q2 on the substrate (in words): active | Relative activity (%) FAO-Q2: 2.4%

fructosyl valine-leucine (VL) [FVL]
Relative activity (%) FAO-Q2: 0.6%
